Measured values from several laboratories, pooled; numbers as filed in NIAID ChemDB.

Common to all: growth or infection tests; organism: Candida parapsilosis

Blank or dashed fields: not listed here. MIC50, MIC90 and the like: level of inhibition, or share of isolates inhibited. Neighbouring rows are from separate reports. a–b is a range or a potency band.

structure	endpoint	read by	strain or isolate	result
C[C@@H](c1ncncc1F)[C@](O)(Cn1cncn1)c1ccc(F)cc1F	MIC80	broth dilution	0306392	0.045 µM
C[C@H]1[C@H](O)[C@@H](C)/C=C/C=C/C=C/C=C/C=C/C=C/C=C/[C@H](O[C@@H]2O[C@H](C)[C@@H](O)[C@H](N)[C@@H]2O)C[C@@H]2O[C@](O)(C[C@@H](O)C[C@@H](O)CC[C@H](O)[C@@H](O)C[C@@H](O)CC(=O)O[C@H]1C)C[C@H](O)[C@H]2C(=O)O	MIC100	broth dilution	MTCC 1965	0.5 µg/mL
CCCCCCCCCCCCCCCC(=O)NCCCN	MIC	broth dilution	ATCC 22019	4 µg/mL
CCC(C)n1ncn(-c2ccc(N3CCN(c4ccc(OC[C@H]5CO[C@](Cn6cncn6)(c6ccc(Cl)cc6Cl)O5)cc4)CC3)cc2)c1=O	MIC	broth dilution	86U	1 µM
C[C@@H]1[C@H](O)[C@@H](C)/C=C/C=C/C=C/C=C/C=C/C=C/C=C/[C@H](O[C@@H]2O[C@H](C)[C@@H](O)[C@H](N)[C@@H]2O)C[C@@H]2O[C@](O)(C[C@@H](O)C[C@@H](O)[C@H](O)CC[C@@H](O)C[C@@H](O)CC(=O)O[C@H]1C)C[C@H](O)[C@H]2C(=O)O	MIC		ATCC 22019	1.6–3.1 µM
CCCCN(Cc1cn(Cc2ccc(Cl)cc2)nn1)CC(O)(Cn1cncn1)c1ccc(F)cc1F	MIC80			<0.125 µg/mL
CC(=O)OC1CCN(CC(O)(Cn2cncn2)c2ccc(F)cc2F)CC1	MIC80	broth dilution	0306392	2.63 µM
CN(CC(=O)Nc1cccc([N+](=O)[O-])c1)CC(O)(Cn1cncn1)c1ccc(F)cc1F	MIC80			>64 µg/mL
CCC(=O)OC1CCN(CC(O)(Cn2cncn2)c2ccc(F)cc2F)CC1	MIC80	broth dilution	0306392	0.634 µM
c1ccc(C(c2ccccc2)n2cnc3ccccc32)cc1	MIC90	agar		>256 µg/mL
CCCCN(Cc1cn(Cc2cccc(F)c2)nn1)CC(O)(Cn1cncn1)c1ccc(F)cc1F	MIC80			0.25 µg/mL
C[C@H]1[C@H](O)[C@@H](C)/C=C/C=C/C=C/C=C/C=C/C=C/C=C/[C@H](O[C@@H]2O[C@H](C)[C@@H](O)[C@H](N)[C@@H]2O)C[C@@H]2O[C@](O)(C[C@@H](O)C[C@@H](O)CC[C@H](O)[C@@H](O)C[C@@H](O)CC(=O)O[C@H]1C)C[C@H](O)[C@H]2C(=O)O	MIC	broth dilution	ATCC 22019	0.25 µg/mL
CC(C)=CCN=C(NCC=C(C)C)NCC=C(C)C	MIC		ATCC 22019	31.2 µg/mL
Clc1ccc(Cl)c(Oc2ccc(NC(=NCCCNc3ccnc4cc(Cl)ccc34)Nc3ccccc3)cc2)c1	MIC	broth dilution / absorbance	ATCC 22019	50 µg/mL
C/C(=N\NC([S-])=Nc1ccccc1F)c1ccccn1.CCC[CH2][Sn+3]	MIC	broth dilution	ATCC 22019	14.98 µM
COc1ccc(-c2cc(=O)c3c(O)c([C@@H]4O[C@H](CO)[C@@H](O)[C@H](O)[C@H]4O)c(O)cc3o2)cc1O	MIC	broth dilution	ATCC 22019	>500 µg/mL
CCCC[C@@H](C)/C=C(C)/C=C(\C)C(=O)N/C(=C/[C@@](C)(O)/C=C/C=C/C=C/C(=O)NC1=C(O)CCC1=O)C(=O)[C@@H]1CO1	MIC	broth dilution		25 µM
CCCCCCCC/C=C\CCCCCCCC(=O)N[C@H](C(=O)N1C[C@H](C)C[C@H]1C(=O)N[C@H](C(=O)N[C@@H](CCO)C(=O)N[C@@H](C)C=O)C(C)C)[C@@H](C)O	MIC	broth dilution / visual reading	ATCC 22019	2 µg/mL
CCCCN(Cc1cn(Cc2c(Cl)cccc2Cl)nn1)CC(O)(Cn1cncn1)c1ccc(F)cc1F	MIC80			64 µg/mL
Cc1cc(C)cc(NC(=O)CN(C)CC(O)(Cn2cncn2)c2ccc(F)cc2F)c1	MIC80			4 µg/mL
CC(C)CC1NC(=O)CC(CCCCCCCCC(C)O)OC(=O)C(CC(C)C)NC(=O)C(CC(C)C)NC(=O)C(CC(C)C)NC(=O)C(C(C)C)NC(=O)C(CC(=O)O)NC(=O)C(CC(C)C)NC1=O	MIC	absorbance	MTCC 1965	1 µg/mL
CCCCCCCCCCCC(=O)NCCCCN	MIC	broth dilution	ATCC 22019	64 µg/mL
CCCCN(Cc1cn(Cc2ccc(F)cc2)nn1)CC(O)(Cn1cncn1)c1ccc(F)cc1F	MIC80			0.25 µg/mL
O=C(/C=C/c1cccc(Cl)c1)OC1CCN(CC(O)(Cn2cncn2)c2ccc(F)cc2F)CC1	MIC80	broth dilution	0306392	0.124 µM
CCCCN(Cc1cn(Cc2ccccc2F)nn1)CC(O)(Cn1cncn1)c1ccc(F)cc1F	MIC80			2 µg/mL
CCNC(=S)NNC(=O)c1cn2ccccc2n1	MIC	broth dilution	ATCC 22019	64 µg/mL
Clc1ccc(C(c2ccccc2)N2CCN(CCn3cncn3)CC2)cc1	MIC90	agar		64 µg/mL
CN(CC(=O)Nc1ccc(Br)cc1)CC(O)(Cn1cncn1)c1ccc(F)cc1F	MIC80			4 µg/mL
C=CCc1ccc(OC)c(OC)c1	MIC90	turbidity	2559	345 µg/mL
CC(C)=CCC/C(C)=C/CN(C/C=C(\C)CCC=C(C)C)C(=N)N	MIC		ATCC 22019	31.2 µg/mL
Clc1ccc(Nc2nnc(-c3cn4ccccc4n3)o2)cc1	MIC	broth dilution	ATCC 22019	32 µg/mL
O=C(c1ccccc1)C(c1ccccc1)n1cnc2ccccc21	MFC	broth dilution		128 µg/mL
O=C(NNC(=S)Nc1ccc(Br)cc1)c1cn2ccccc2n1	MIC	broth dilution	ATCC 22019	64 µg/mL
Cc1ccc(/C=N/Nc2ccnc3cc(Cl)ccc23)cc1	MFC			40 µg/mL
CCCCN(Cc1cn(Cc2cccc(Br)c2)nn1)CC(O)(Cn1cncn1)c1ccc(F)cc1F	MIC80			>64 µg/mL
O=C(NNC(=S)Nc1ccc(Cl)cc1)c1cn2ccccc2n1	MIC	broth dilution	ATCC 22019	32 µg/mL
CCCCN(Cc1cn(Cc2cccc(Cl)c2)nn1)CC(O)(Cn1cncn1)c1ccc(F)cc1F	MIC80			0.25 µg/mL
C/C(=N\NC([S-])=Nc1ccccc1Cl)c1ccccn1.CCC[CH2][Sn+3]	MIC	broth dilution	ATCC 22019	58.13 µM
O=C(/C=C/c1ccc(F)cc1)OC1CCN(CC(O)(Cn2cncn2)c2ccc(F)cc2F)CC1	MIC80	broth dilution	0306392	0.129 µM
CCC[CH2][Sn+3].[S-]C(=Nc1ccccc1Cl)N/N=C(\c1ccccc1)c1ccccn1	MIC	broth dilution	ATCC 22019	52.24 µM
CCCCN(Cc1cn(Cc2ccccc2C#N)nn1)CC(O)(Cn1cncn1)c1ccc(F)cc1F	MIC80			4 µg/mL
CCCCCCCCC(=O)OC1CCN(CC(O)(Cn2cncn2)c2ccc(F)cc2F)CC1	MIC80	broth dilution	0306392	0.538 µM
Cc1ccc(NC(=O)CN(C)CC(O)(Cn2cncn2)c2ccc(F)cc2F)c(C)c1	MIC80			16 µg/mL
N#Cc1ccc(/C=C/C(=O)OC2CCN(CC(O)(Cn3cncn3)c3ccc(F)cc3F)CC2)cc1	MIC80	broth dilution	0306392	0.507 µM
C[C@H]1[C@H](O)[C@@H](C)/C=C/C=C/C=C/C=C/C=C/C=C/C=C/[C@H](O[C@@H]2O[C@H](C)[C@@H](O)[C@H](N)[C@@H]2O)C[C@@H]2O[C@](O)(C[C@@H](O)C[C@@H](O)CC[C@H](O)[C@@H](O)C[C@@H](O)CC(=O)O[C@H]1C)C[C@H](O)[C@H]2C(=O)O	MIC	broth dilution	ATCC 22019	0.5 µg/mL
O=C(/C=C/c1ccccc1F)OC1CCN(CC(O)(Cn2cncn2)c2ccc(F)cc2F)CC1	MIC80	broth dilution	0306392	0.129 µM
COc1cccc(NC(=O)CN(C)CC(O)(Cn2cncn2)c2ccc(F)cc2F)c1	MIC80			4 µg/mL
c1ccc(C(c2ccccc2)n2nnc3ccccc32)cc1	MIC90	agar		>256 µg/mL
O=C(/C=C/c1ccc(Cl)cc1Cl)OC1CCN(CC(O)(Cn2cncn2)c2ccc(F)cc2F)CC1	MIC80	broth dilution	0306392	0.466 µM

Repeating the final 4 entries:

structure,endpoint,read by,strain or isolate,result
O=C(/C=C/c1ccccc1F)OC1CCN(CC(O)(Cn2cncn2)c2ccc(F)cc2F)CC1,MIC80,broth dilution,0306392,0.129 µM
COc1cccc(NC(=O)CN(C)CC(O)(Cn2cncn2)c2ccc(F)cc2F)c1,MIC80,,,4 µg/mL
c1ccc(C(c2ccccc2)n2nnc3ccccc32)cc1,MIC90,agar,,>256 µg/mL
O=C(/C=C/c1ccc(Cl)cc1Cl)OC1CCN(CC(O)(Cn2cncn2)c2ccc(F)cc2F)CC1,MIC80,broth dilution,0306392,0.466 µM